Data from article PMC11988454, “Discovery of synthetic small molecules targeting the central regulator of Salmonella pathogenicity” (Science Advances, 2025).

Assays:
SPI-encoded genes = type: cell-based, S. Typhimurium
Experimental: Salmonella was grown for 5 hours at 37°C in LB medium in the presence of 100 μM C26 or 1% (v/v) DMSO as a control. After growth, bacteria were harvested by centrifugation, and total RNA was isolated using the Qiagen RNeasy mini kit according to the manufacturer’s protocol. RNA-seq was performed on a HiSeq2500 with a 2 x 125–base pair paired-end read protocol. The Illumina Casava software was used to demultiplex the sequenced reads providing individual raw fastq sample files. Raw fastq files were prefiltered using the chastity filter to remove reads that contain a “Y” flag. FastQC (https://www.bioinformatics.babraham.ac.uk/projects/fastqc/, version v0.11.4) was used to determine the quality of the resulting fastq files. Subsequently, an adapter trimming/removal step was conducted with Cutadapt (https://pypi.python.org/pypi/cutadapt/, version 1.8.3). […] TopHat2 (https://ccb.jhu.edu/software/tophat/index.shtml, version v2.0.12) was used as aligner to map the remaining quality controlled reads to the Salmonella genome. Read counting to features (e.g., genes or exons) in the genome was performed with HTSeq-count (https://htseq.readthedocs.io/en/master/htseqcount.html, version 0.6.0.). Counting was performed using “union” mode on the feature “gene.” The stranded option was also set to “–stranded=no” to indicate to count features on both strands. Furthermore, the -r parameter from HTSeq was set to “pos” as this is the default of the output of TopHat’s “accepted_hits.bam” mapping file. For differential expression analysis, the raw read count table resulting from HTSeq counting is used and fed into the R package DESeq2 (version 1.10.1). Graphs were also produced in the R language (R version 3.2.1) mainly using the R package ggplot2 (version 2.2.0). Reports were produced using the R package rmarkdown (version 1.3).

S. Typhimurium = experiment: Subcellular quantification of uptake; type: cell-based; conditions: 100 ng/ml, 10 min
[1] = C26 100 μM, single biological replicates

SMILES | Log10 (Number of reads) STM1329 (SPI-encoded genes; C26 100 μM (Fig 2D)) | Log10 (Number of reads) STM4315 (SPI-encoded genes; C26 100 μM (Fig 2D)) | Log10 (Number of reads) hilA (SPI-encoded genes; C26 100 μM (Fig 2D)) | Log10 (Number of reads) invF (SPI-encoded genes; C26 100 μM (Fig 2D)) | Log10 (Number of reads) invG (SPI-encoded genes; C26 100 μM (Fig 2D)) | RNA-seq read count STM1329 (SPI-encoded genes; [1]) | RNA-seq read count STM4315 (RtsA) (SPI-encoded genes; [1]) | RNA-seq read count hilA (SPI-encoded genes; [1]) | RNA-seq read count invG (SPI-encoded genes; [1]) | uptake in the cytosol, fold difference to C26 (S. Typhimurium; cytosol) [fold] | overall uptake, fold higher than C26 (S. Typhimurium; whole cell) [fold]
CN(CC(=O)NCc1ccc2c(c1)OCO2)Cc1ccc(Br)s1 [C26, N-(benzo[d][1,3]dioxol-5-ylmethyl)-2-{[(5-bromothiophen-2-yl)methyl](methyl)amino}acetamide] | -0.4771 | 1.666 | 1.914 | 2.286 | 2.322 | 0 (2×) and 1 | 51 and 31 and 57 | 92 and 67 and 87 | 178 and 158 and 294 | – | –
CN(CC(=O)NCc1ccc2c(c1)OC(F)(F)O2)Cc1ccc(Br)s1 [SW-C182, 2-{[(5-Bromothiophen-2-yl)methyl](methyl)amino}-N-[(2,2-difluorobenzo[d][1,3]dioxol-5-yl)methyl]acetamide] | – | – | – | – | – | – | – | – | – | 5.3 | 10

Where “and” joins values, the source holds several entries; their conditions need not be identical. Equal entries are not always repeated.
